Record: PubChem BioAssay AID624099 (ICCB-Longwood, 2012)
Aim: 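Knock-downs relieving repression by E2 of an HPV18 LCR luciferase reporter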 (primary screen). System: human C33A cervical carcinoma cells (HPV-negative) stably expressing BPV1 E2 and an HPV18 LCR luciferase reporter. Knock-down reagent: siRNA pool against human genes, 40 nM. Duration: 72 h. Detection: 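HPV18 LCR reporter light per well, converted to plate-wise z-scores that exclude control wells, and averaged over triplicate plates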. Reading the numbers: mean z-score and z-score: higher = stronger reporter signal, weaker E2 silencing. Call rule: 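Mean z ≥ 2 together with z ≥ 2 in two or more of the three replicates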.
The deposit covers about 21,000 reagents; shown is a random part of them. 497 of all reagents (2.4%) were called active. 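Higher z means weaker E2 silencing; only reporter increases were scored, and knock-downs that hurt cell survival may mask genuine repressor factors.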

Target gene	mean z-score	z-score, replicate A	z-score, replicate B	z-score, replicate C	outcome
ISLR2-AS1	2.34	1.51	2.74	2.76	active
C1QTNF5	-0.02	-0.18	0.39	-0.25	inactive
LOC388807 (retired record)	-0.4	-0.45	-0.46	-0.29	inactive
CDH5	0.03	0.12	-0.12	0.08	inactive
HELT	0.4	0.41	0.59	0.19	inactive
YDJC	1	1.13	0.63	1.24	inactive
SOD2	-0.54	-0.62	-0.45	-0.55	inactive
ACTL8	0.58	1.16	0.54	0.04	inactive
APOA1	0.09	0.13	-0.09	0.23	inactive
PRSS45P	-0.87	-0.56	-1.26	-0.78	inactive
LPCAT2	-0.21	0.01	-0.29	-0.36	inactive
FAM171A2	2.32	2.48	2.34	2.12	active
PSMC3IP	-0.74	-0.45	-0.78	-0.98	inactive
LMAN1L	1.63	1.71	1.62	1.56	inactive
UBALD2	-0.28	-0.27	-0.02	-0.57	inactive
HELLS	-1.28	-1.29	-1.5	-1.06	inactive
PPP1R14D	-1.36	-0.98	-1.43	-1.66	inactive
PDC	0.14	0.04	0.09	0.29	inactive
LAMP1	-0.05	0.35	-0.18	-0.33	inactive
GCLC	0.61	0.86	0.59	0.39	inactive
HASPIN	-0.08	-0.14	-0.37	0.28	inactive
LOC392666 (retired record)	-0.63	-0.64	-0.48	-0.76	inactive
C14orf119	0.91	0.12	1.15	1.46	inactive
RABL6	0.88	0.98	0.91	0.75	inactive
CBLN1	0.47	0.62	0.37	0.41	inactive
MALSU1	0.36	0.34	0.51	0.23	inactive
DCST1	1.37	0.17		0.46	inactive
MGC13053 (retired record)	-1.16	-1.14	-0.84	-1.5	inactive
SLC38A3	0.26	0.49	0	0.29	inactive
INTS15	0.22	0.13	0.29	0.23	inactive
SEPTIN2	2.33	2.47	2.06	2.47	active
WDR72	0.29	0.01	0.41	0.46	inactive
ADGRG3	1	1.08	1.07	0.84	inactive
SLC30A3	-0.61	-0.68	-0.39	-0.76	inactive
KRT18	-0.82	-0.85	-0.67	-0.94	inactive
STRIP1	-0.6	-0.59	-0.86	-0.34	inactive
MAP3K9	-0.6	-0.81	-0.66	-0.34	inactive
PRSS54	0.24	-0.09	0.6	0.21	inactive
ZNF648	0.8	1.04	0.6	0.78	inactive
EYA3	-0.64	-0.21	-1.07	-0.64	inactive
TMEM9	-1.24	-1.65	-0.7	-1.36	inactive
SEMA7A	-1.09	-0.84	-1.02	-1.42	inactive
LRRC42	0.82	0.79	0.7	0.99	inactive
RNF25	-1.06	-0.83	-1.02	-1.32	inactive
ZBTB7C	-1.32	-1.29	-1.45	-1.23	inactive
XYLB	-0.14	-0.06	-0.35	0	inactive
PRAMEF4	0.73	0.75	0.66	0.78	inactive
LRRTM4	1.15	1.18	0.84	1.43	inactive
CTSW	2.29	2.17	3.43	1.28	active
NALCN	-0.69	-0.51	-1.12	-0.46	inactive
RAB43	-0.99	-0.74	-1.12	-1.1	inactive
ETS1	-0.05	0.22	-0.04	-0.33	inactive
CABP5	-0.27	-0.11	-0.44	-0.27	inactive
ZNF699	0.53	0.75	0.7	0.13	inactive
FOXE1	0.09	0.25	0.02	0	inactive
ANAPC5	0.19	-0.06	0.19	0.44	inactive
DTX2	0.41	0.34	0.36	0.53	inactive

7 successive entries from above:
Target gene	mean z-score	z-score, replicate A	z-score, replicate B	z-score, replicate C	outcome
LOC392666 (retired record)	-0.63	-0.64	-0.48	-0.76	inactive
C14orf119	0.91	0.12	1.15	1.46	inactive
RABL6	0.88	0.98	0.91	0.75	inactive
CBLN1	0.47	0.62	0.37	0.41	inactive
MALSU1	0.36	0.34	0.51	0.23	inactive
DCST1	1.37	0.17		0.46	inactive
MGC13053 (retired record)	-1.16	-1.14	-0.84	-1.5	inactive
